Results taken from PubChem BioAssay AID1822 (The Scripps Research Institute Molecular Screening Center, 2009).
Only a part is listed here, and it is no random draw. Activity calls are given as the source filed them.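 Rule for the calls: active = inhibition above the campaign mean inhibition over all tested compounds plus 3 SD (cut at about 28% in these data); inactive = the rest.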

tested on: M18 aspartyl aminopeptidase (Plasmodium falciparum 3D7); test: inhibition of P. falciparum M18 aminopeptidase – biochemical, QFRET, recombinant enzyme, primary screen (AID 1822); settings: recombinant PfM18AAP, H-Glu-NHMec fluorogenic cleavage; at 7.35 µM; hits give high values;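 note: 0% = plate median of test compound wells and 100% = 2 mM ZnCl2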

SMILES	inhibition
CCOC(=O)Nc1ccc([As](=O)(O)O)c(O)c1	inactive: 0.85%
O=[N+]([O-])c1ccc(Nc2ccc(Oc3ccc([N+](=O)[O-])cc3[N+](=O)[O-])cc2)c([N+](=O)[O-])c1	inactive: -0.81%
Cc1cc(SC(NC=O)C(Cl)(Cl)Cl)ncn1 (centres undefined)	inactive: 24.6%
O=P(Nc1ccccn1)(c1cccc2ccccc12)c1cccc2ccccc12	inactive: -0.8%
CCOC(=O)Nc1cccc([As](=O)(O)O)c1	inactive: -8.29%
O=C(/C=C/c1ccccc1)OC1CN2CCC1CC2 (centres undefined)	inactive: -11.8%
CN(C)C1(CNC(=O)c2ccc(S(C)(=O)=O)cc2)CCCCC1	inactive: -11.3%
Cc1nn(-c2ccccc2)c2c1P(=O)(N1CCOCC1)N(C)C(c1ccccc1)=N2 (centres undefined)	inactive: 7.91%
Cc1ccc(C(=O)OC2CN3CCC2CC3)cc1 (centres undefined)	inactive: -1.12%
CC1CCC(C(C)C)C(OP(=O)(Nc2ccccn2)c2ccccc2)C1 (centres undefined)	inactive: 7.61%
O=P1(Nc2ccc(Br)cn2)COc2ccccc2OC1	inactive: 0.72%
O=[As](O)(c1cccs1)c1cccs1	inactive: 3.94%
Cc1ccc(OCC(=O)OC2CN3CCC2CC3)cc1 (centres undefined)	inactive: 2.24%
Nc1cccc([As](=O)(O)c2ccccc2)c1	inactive: -0.38%
O=P1(Nc2ncccn2)COc2ccccc2OC1	inactive: 1.66%
Clc1n[nH]nc1-c1nn[nH][15n]1	inactive: -0.93%
CC(C)(C)C(=O)NC(Sc1ncccn1)C(Cl)(Cl)Cl (centres undefined)	inactive: 24.5%
CCOP(=O)(Nc1ccc(C)cn1)OCC	inactive: 2.18%
CCC1=CC2Cc3nc4ccc(Cl)cc4c(N)c3C(C1)C2 (centres undefined)	inactive: 2.75%
O=P1(Nc2ccccn2)COc2ccccc2OC1	inactive: 3.44%
CCOP(=O)(NC(=NC(C)c1ccccc1)NC(C)c1ccccc1)OCC (centres undefined)	inactive: -8.05%
O=[As](O)(c1ccccc1Br)c1ccccc1Br	inactive: -13.8%

SMILES	inhibition
CC1(CBr)Cn2c(nc3ccccc3c2=O)S1 (centres undefined)	inactive: -4.53%
CN(C(=O)Cc1ccc(Cl)c(Cl)c1)[C@@H]1CCCC[C@H]1N1CCCC1	inactive: -1.12%
CC(C)/C=N\N=C(\N)N[N+](=O)[O-]	inactive: 22.7%
O=[As](O)(c1cccc(O)c1)c1cccc(O)c1	inactive: -8.29%
Cc1cccc(OCC(=O)OC2CN3CCC2CC3)c1 (centres undefined)	inactive: -13.8%
COc1cc(C(=O)NCC2(N3CCOCC3)CCCCC2)cc(Cl)c1OC(C)C	inactive: -0.18%
O=[As](O)(O)c1cccnc1	inactive: -16.1%
CS(=O)(=O)c1ccc(Cl)c(NC(=O)COC(=O)C(O)(c2ccccc2)c2ccccc2)c1	inactive: 0.47%
O=C(OC1CN2CCC1CC2)c1ccc(Cl)cc1 (centres undefined)	inactive: 0.21%
COc1cc(C2NCCC3(OCCO3)C2(C)C)cc(OC)c1OC (centres undefined)	inactive: 0.98%
CCOP(=O)(Nc1cccc2ccccc12)OCC	inactive: -11.6%
CCCOP(=S)(Nc1nc(N)cc(=O)[nH]1)OCCC	inactive: -5.83%
Nc1cccc2c([As](=O)(O)O)cccc12	inactive: 20.8%
Cc1ccc(NCCc2c([N+](=O)[O-])cc([N+](=O)[O-])cc2[N+](=O)[O-])cc1	inactive: 14%
O=C(O)COc1ccc([As](=O)(O)O)cc1[N+](=O)[O-]	inactive: 4.64%
Nc1ccccc1[As](=O)(O)c1ccccc1	inactive: 2.74%
CS(=O)(=O)c1cc([N+](=O)[O-])c2no[n+]([O-])c2c1	inactive: 6.52%
CCOP1(=S)c2c(C)nn(CCC#N)c2N=C(c2ccccc2F)N1C (centres undefined)	inactive: 0.13%
O=P(Nc1nccs1)(c1ccccc1)c1nc2ccccc2s1 (centres undefined)	inactive: 8.08%
O=P(Nc1nccs1)(Oc1ccccc1)Oc1ccccc1	inactive: 3.04%
O=[N+]([O-])c1ccc2c(c1)nnn2O	inactive: -12.3%
CCOP1(=S)c2c(C)nn(CCC#N)c2N=C(c2ccc(F)cc2)N1C (centres undefined)	inactive: 0.45%
